Measured values from publication PMC12457685 (Scientific Reports, 2025).
The structures given here were assigned with low confidence; some may be wrong.

Columns and labels:
Type in all cases: binding
[1] = molecular target: SARS-CoV-2 Delta RBD (Severe acute respiratory syndrome coronavirus 2, UniProt P0DTC2, L452R/T478K); experiment: SPR multi-cycle kinetics, SARS-CoV-2 Delta RBD over immobilized ACE2 epitopes
[2] = molecular target: SARS-CoV-2 Alpha RBD (Severe acute respiratory syndrome coronavirus 2, UniProt P0DTC2); experiment: SPR multi-cycle kinetics, SARS-CoV-2 Alpha RBD over immobilized ACE2 epitopes; settings: for ka / kd: SPR individual measurement
[3] = molecular target: SARS-CoV-2 spike protein (Severe acute respiratory syndrome coronavirus 2, UniProt P0DTC2, A892P/A899P/A942P/F817P/K986P/R682G/R683S/R685S/V987P); experiment: SPR multi-cycle kinetics, full SARS-CoV-2 spike protein over immobilized ACE2 epitopes; settings: for ka / kd: SPR individual measurement
[4] = molecular target: SARS-CoV-1 RBD (Severe acute respiratory syndrome coronavirus, UniProt P59594); experiment: SPR multi-cycle kinetics, SARS-CoV-1 RBD over immobilized ACE2 epitopes; settings: for Kd / ka / kd: SPR individual measurement
[5] = SPR individual measurement, replicate 1 (first printed line)
[6] = SPR individual measurement, replicate 2 (second printed line)
[7] = replicate 1 (first printed line)
[8] = replicate 2 (second printed line)

C#CC[C@H](NC(=O)[C@@H](NC(=O)[C@H](CC(C)C)NC(=O)[C@H](CCSC)NC(=O)[C@H](CO)NC(=O)[C@H](CC(N)=O)NC(=O)[C@H](CCC(=O)O)NC(=O)[C@H](Cc1c[nH]c2ccccc12)NC(=O)[C@H](Cc1ccccc1)NC(=O)CNC(=O)[C@H](CCC(N)=O)NC(=O)[C@@H](NC(=O)[C@@H](N)CCSC)[C@@H](C)O)[C@@H](C)O)C(N)=O
Kd [1, 5]: 5.44 µM | ka [1, 5]: 1,83e3 M-1s-1 | kd [1, 5]: 9,97e-3 s-1 | ka [1, 6]: 4,43e3 M-1s-1 | kd [1, 6]: 2,64e-3 s-1 | binding (in words) ([1]; single-epitope sensor, SPR): only weak interactions were detected | ka [2, 7]: 8,39e3 M-1s-1 | kd [2, 7]: 2,68e-3 s-1 | ka [2, 8]: 7,83e3 M-1s-1 | kd [2, 8]: 5,11e-3 s-1 | binding (in words) ([2]; single-epitope sensor, SPR): only weak interactions were detected | ka [3, 7]: 7,5e3 M-1s-1 | kd [3, 7]: 1,53e-3 s-1 | ka [3, 8]: 6,2e3 M-1s-1 | kd [3, 8]: 6,386e-3 s-1 | binding (in words) ([3]; single-epitope sensor, SPR, full spike protein): did not show measurable signals attributable to effective interactions with the spike protein | Kd [4, 7]: 1.87 µM | ka [4, 7]: 5,32e3 M-1s-1 | kd [4, 7]: 9,97e-3 s-1 | Kd [4, 8]: 3.28 µM | ka [4, 8]: 2,50e3 M-1s-1 | kd [4, 8]: 8,20e-3 s-1 | binding (in words) ([4]; single-epitope sensor, SPR): only weak interactions were detected
